Reference: patent publication US20120121591A1, “SELECTIVE AND POTENT PEPTIDE INHIBITORS OF Kv1.3” (priority 2009, published 2012)

Assays:
human Kv1.3 (human) = human Kv1.3 (human) (UniProt P22001); experiment: cell-based or functional assay
human Kv1.1 (human) = human Kv1.1 (human) (UniProt Q09470); experiment: cell-based or functional assay

“Monovalent ShK(1-35 Q16K)-Fc/Fc heterodimer (Fc fusion)” was tested, and the Kv1.3 (PX) IC50 (human Kv1.3 (human)) was 1.45 nM, the WB (IFNg) IC50 (human Kv1.3 (human)) was 0.12 nM and the WB (IL-2) IC50 (human Kv1.3 (human)) was 0.11 nM. The Kv1.1 (PX) IC50 (human Kv1.1 (human)) was 14.8 nM.
